Measured values from several laboratories, pooled; numbers as filed in NIAID ChemDB.

Shared fields: tests on isolated targets; species: HIV-1; target: Protease; measure: Ki

Neighbouring rows are from separate reports. An empty or dashed field is not shown.

structure	strain or isolate	conditions	changes	result
CC(C)[C@H](NC(=O)[C@@H](NC(=O)C(Cc1ccccc1)CP(=O)(O)C(Cc1ccccc1)NC(=O)c1ccccc1)C(C)C)C(N)=O		pH 4.5		0.0006 µM
O=C1N(Cc2cccc(-c3cn[nH]n3)c2)[C@H](Cc2ccccc2)[C@H](O)[C@@H](O)[C@@H](Cc2ccccc2)N1Cc1cccc(-c2cn[nH]n2)c1	RF			0.00017 µM
O=C1N(Cc2ccccc2)C[C@@H](O)[C@@H](Cc2ccccc2)N1Cc1ccccc1				2.5 µM
CC[C@H](C)[C@H](NC(=O)OCc1ccccc1)C(=O)N[C@@H](Cc1cnc[nH]1)C(=O)NC(Cc1ccccc1)P(=O)(O)CC(Cc1ccccc1)C(=O)N[C@H](C(=O)N[C@H](C(N)=O)C(C)C)C(C)C		pH 4.5		0.0004 µM
Cc1cccc(C)c1OCC(=O)N[C@@H](Cc1ccccc1)[C@H](O)C(=O)N1CSC(C)(C)[C@H]1C(=O)NC(C)(C)C	IIIB			0.0217 µM
COC(=O)c1cccc(CN2C(=O)N(Cc3cccc(-c4ccn[nH]4)c3)[C@H](Cc3ccccc3)[C@H](O)[C@@H](O)[C@H]2Cc2ccccc2)c1	RF			0.00014 µM
O=S1(=O)N(Cc2cccc(-c3cccs3)c2)[C@H](COc2ccccc2)[C@H](O)[C@@H](O)[C@@H](COc2ccccc2)N1Cc1cccc(-c2cccs2)c1			PR-V82A	39 µM
O=C(N[C@H]1c2ccccc2C[C@H]1O)[C@H](OCc1cc(F)cc(F)c1)[C@H](O)[C@@H](O)[C@@H](OCc1cc(F)cc(F)c1)C(=O)N[C@H]1c2ccccc2C[C@H]1O				0.00183 µM
COC(=O)[C@@H](NC(=O)[C@@H](NC(=O)CC[C@H](O)[C@H](Cc1ccccc1)NC(=O)[C@H](C)NC(=O)OCc1ccccc1)C(C)C)C(C)C				0.12 µM
CNC(=O)CN1[C@H](COc2ccccc2)[C@H](O)[C@@H](O)[C@@H](COc2ccccc2)N(CC(=O)NC)S1(=O)=O			PR-G48V L90M	24 µM
O=C1N[C@H](Cc2ccccc2)[C@H](O)[C@@H](O)[C@@H](Cc2ccccc2)N1Cc1cccc(-c2ccn[nH]2)c1	RF			0.00026 µM
O=c1n(Cc2ccccc2)c2c(Cc3ccccc3)oc(Cc3ccccc3)c2n1Cc1ccccc1				3.7 µM
CC(C)(C)C(=O)c1cccc(CN2C(=O)N(Cc3cccc(C(=O)C(C)(C)C)c3)[C@H](Cc3ccccc3)[C@H](O)[C@@H](O)[C@H]2Cc2ccccc2)c1	RF			0.0036 µM
CC(C)(C)C(SC1CCCC1)c1c(O)cc(-c2ccccc2)oc1=O				0.058 µM
CC(C)[C@H](NC(=O)[C@@H](NC(=O)C1CCCCC1P(=O)(O)C(Cc1ccccc1)NC(=O)OCc1ccccc1)C(C)C)C(N)=O		pH 6.5		0.05 µM
O=C1N(Cc2ccccc2)[C@H](Cc2ccccc2)[C@H](O)CN(Cc2ccccc2)N1Cc1ccccc1				0.0087 µM
CC(C)[C@H](NC(=O)[C@@H](NC(=O)C1CCCC1P(=O)(O)C(Cc1ccccc1)NC(=O)OCc1ccccc1)C(C)C)C(N)=O		pH 6.5		2.4 µM
CCC(C)[C@H](NC(=O)[C@@H](C[C@H](O)[C@H](CC1CCCCC1)NC(=O)C(CC(N)=O)NC(=O)c1ccc2ccccc2n1)C(C)C)C(=O)O				>1 µM
O=C1N(Cc2ccccc2)[C@H](Cc2ccccc2)[C@H](O)[C@@H](O)[C@@H](Cc2ccccc2)N1Cc1ccccc1				0.0036 µM
C/C(=N\O)c1cccc(CN2[C@H](COc3ccccc3)[C@H](O)[C@@H](O)[C@@H](COc3ccccc3)N(Cc3cccc(/C(C)=N/O)c3)S2(=O)=O)c1			PR-I84V	0.78 µM
CNC(=O)[C@@H](NC(=O)[C@H](OCc1ccccc1)[C@H](O)[C@H](O)[C@@H](OCc1ccccc1)C(=O)N[C@H](C(=O)NC)C(C)C)C(C)C				0.00128 µM
O=S1(=O)N(Cc2ccc(-c3cccs3)cc2)[C@H](COc2ccccc2)[C@H](O)[C@@H](O)[C@@H](COc2ccccc2)N1Cc1ccc(-c2cccs2)cc1			PR-V82A	7.7 µM
O=S1CC(CO)(Cc2ccccc2)C(O)C(CO)(Cc2ccccc2)C1				<25 µM
O=S1(=O)N(Cc2cccc(I)c2)[C@H](COc2ccccc2)[C@H](O)[C@@H](O)[C@@H](COc2ccccc2)N1Cc1cccc(I)c1			PR-V82A	3.1 µM
O=C1N(Cc2cccc(-c3ncc[nH]3)c2)[C@H](Cc2ccccc2)[C@H](O)[C@@H](O)[C@@H](Cc2ccccc2)N1Cc1cccc(-c2ncc[nH]2)c1	RF			0.00016 µM

Repeating the first 3 entries:

{"structure": "CC(C)[C@H](NC(=O)[C@@H](NC(=O)C(Cc1ccccc1)CP(=O)(O)C(Cc1ccccc1)NC(=O)c1ccccc1)C(C)C)C(N)=O", "conditions": "pH 4.5", "result": "0.0006 µM"}
{"structure": "O=C1N(Cc2cccc(-c3cn[nH]n3)c2)[C@H](Cc2ccccc2)[C@H](O)[C@@H](O)[C@@H](Cc2ccccc2)N1Cc1cccc(-c2cn[nH]n2)c1", "strain or isolate": "RF", "result": "0.00017 µM"}
{"structure": "O=C1N(Cc2ccccc2)C[C@@H](O)[C@@H](Cc2ccccc2)N1Cc1ccccc1", "result": "2.5 µM"}